A mixed list of measured activities; the numbers were collected in NIAID ChemDB.

All rows: tests in culture; organism: Mycobacterium avium; endpoint: MIC

An empty or dashed field is not shown. Lines come from different laboratories, so protocols vary.

SMILES	strain	setting	value
O=c1oc2ccc(F)cc2c(=O)n1-c1ccc(C(F)(F)F)cc1	CNCTC MY330/88	-	8 µM
Cc1ccc(-n2c(=S)oc3ccc(C)cc3c2=S)cc1	MY330/88	21 d	2 µM
O=C(Oc1ccc(Cl)cc1C(=O)Nc1ccc(Cl)c(Cl)c1)c1cnccn1	330/88	14 d	4 µM
CCCOc1ccccc1NC(=O)OCCN1CCOCC1	MY330/88	-	1000 µM
COc1ccc2c(=O)n(-c3cccc(F)c3)c(=O)oc2c1	CNCTC MY330/88	-	62.5 µM
S=c1oc2ccc(Br)cc2c(=S)n1-c1cccc(Cl)c1	MY330/88	21 d	32 µM
O=c1oc2ccc(Cl)cc2c(=O)n1-c1ccccc1	CNCTC MY330/88	-	16 µM
c1ccc(-c2ccc(CNc3ccc(N4CCSCC4)cc3)cc2)cc1	103317	-	85.5 µM
O=C(Oc1ccc(Cl)cc1C(=O)Nc1ccc(C(F)(F)F)cc1)c1cnccn1	330/88	21 d	4 µM
c1ccc(CO/N=C(\Cn2ccnc2)c2ccccc2)cc1	103317	-	3.43 µM
CCCCCCCCCOc1ccc(NC(=O)OCCN2CCCCC2)cc1	MY330/88	-	8 µM
c1ccc(-c2ccc(CNc3ccccc3N3CCSCC3)cc2)cc1	103317	-	85.5 µM
CC(C)N=c1cc2n(-c3ccc(Cl)cc3)c3ccccc3nc-2cc1Nc1ccc(Cl)cc1	6194	-	2 µg/mL
O=C(Oc1ccc(Br)cc1C(=O)Nc1ccc(C(F)(F)F)cc1)c1cnccn1	330/88	14 d	2 µM
N#Cc1ccc(CSc2ncn[nH]2)cc1	MY330/88	-	1000 µM
CC[C@H]1OC(=O)[C@H](C)C(=O)[C@H](C)[C@@H](O[C@@H]2O[C@H](C)C[C@H](N(C)C)[C@H]2O)[C@](C)(OC)C[C@@H](C)C(=O)[C@H](C)[C@H]2N(NCCCc3ccnc4ccccc34)C(=O)O[C@]12C	Isolate 1295	-	2.5 µg/mL
O=C(Oc1cc(Cl)ccc1C(=O)Nc1ccc(F)cc1)c1cnccn1	330/88	14 d	2 µM
S=c1nc[nH][nH]1	MY330/88	-	1000 µM
CCCCOc1ccccc1NC(=O)OCCN1CCCCC1	MY330/88	-	62.5 µM
O=c1oc2ccc(F)cc2c(=O)n1-c1cccc(F)c1	CNCTC MY330/88	-	31 µM
Clc1ccc(CNc2ccc(N3CCOCC3)cc2)cc1	103317	-	101 µM
c1ccc(CSc2ncn[nH]2)cc1	MY330/88	-	1000 µM
COc1ccc2c(=O)n(-c3ccc(C(F)(F)F)cc3)c(=O)oc2c1	CNCTC MY330/88	-	16 µM
Cc1ccc(C(Cn2ccnc2)OCc2cccc3ccccc23)cc1	103317	-	1.46 µM
COc1ccc2oc(=S)n(-c3ccc(F)cc3)c(=S)c2c1	MY330/88	14 d	32 µM
COc1ccc2oc(=O)n(-c3cccc(Cl)c3)c(=O)c2c1	CNCTC MY330/88	-	125 µM
Fc1ccc(-n2c(=S)oc3ccc(F)cc3c2=S)cc1	MY330/88	21 d	16 µM
Fc1ccc(/C(Cn2ccnc2)=N\OCc2ccccc2)cc1	103317	-	12.9 µM
Cc1ccc2oc(=O)n(-c3ccc(Cl)c(Cl)c3)c(=S)c2c1	MY330/88	21 d	16 µM
COc1ccc2c(=O)n(-c3ccc(C)cc3)c(=O)oc2c1	CNCTC MY330/88	-	32 µM
CN1CCN(c2ccccc2NCc2ccc(-c3ccccc3)cc2)CC1	103317	-	10.8 µM
Cc1cccc(C(N)=Nc2nc(-c3ccccn3)cc3ccccc23)c1	5718	-	2 µg/mL
O=c1oc2ccc(Br)cc2c(=S)n1-c1cccc(F)c1	MY330/88	21 d	32 µM
CCCCCCOc1ccccc1NC(=O)OCCN1CCOCC1	MY330/88	-	125 µM
O=C(Oc1cc(Cl)ccc1C(=O)Nc1cccc(F)c1)c1cnccn1	330/88	21 d	16 µM
Cc1ccc2oc(=S)n(-c3ccc(Br)cc3)c(=S)c2c1	MY330/88	21 d	4 µM
Cc1ccc(CSc2ncn[nH]2)cc1	MY330/88	-	250 µM

For reference, 3 entries again:

SMILES,strain,setting,value
c1ccc(-c2ccc(CNc3ccccc3N3CCSCC3)cc2)cc1,103317,-,85.5 µM
CCCOc1ccccc1NC(=O)OCCN1CCOCC1,MY330/88,-,1000 µM
Cc1ccc(CSc2ncn[nH]2)cc1,MY330/88,-,250 µM